Compound potency records, mixed from different reports. Data source: NIAID ChemDB in PubChem.

Shared fields: whole-cell or culture tests

Percent inhibition refers to the dose given; in toxicity tests it is the harm to the cells. MIC50, MIC90 and the like: level of inhibition, or share of isolates inhibited. An empty or dashed field is not shown. Rows are shuffled and stem from different studies. a–b is a range or a potency band.

CC1CNCCN1S(=O)(=O)c1cccc2cnccc12 ; organism: Mycobacterium bovis ; endpoint: inhibition ; strain: BCG ; tested at: 20 µg/mL ; result: 60%
CCCNC(=O)Nc1ccc(S(=O)(=O)Nc2cc(C)on2)cc1 ; conditions: 21 d ; organism: Mycobacterium kansasii ; endpoint: MIC100 ; method: broth dilution / absorbance ; strain: 235/80 ; result: 1000 µM
O=C(Nc1ccc(C(F)(F)F)cc1)c1cc(Cl)ccc1OP(=O)(c1ccccc1)c1ccccc1 ; conditions: 21 d ; organism: Mycobacterium kansasii ; endpoint: MIC ; strain: My 6509/96 ; result: 4 µM
O=C(O)c1cn(C2CC2)c2c(F)c(N3CCSCC3)c(F)cc2c1=O ; organism: Mycobacterium avium complex ; endpoint: MIC ; strain: 1915112 ; result: 4 µg/mL
CN[C@@H]1[C@@H](O[C@H]2O[C@H](CO)[C@@H](N)[C@H](O)[C@H]2O)OC2C[C@@H](N)[C@@H](O[C@H]3[C@H](OC4O[C@H](CO)[C@@H](OCCO)[C@H]4O)[C@@H](O)[C@H](N)C[C@@H]3N)OC2[C@@H]1O ; organism: Mycobacterium abscessus ; endpoint: MIC ; method: broth dilution ; strain: L948 ; result: 32 µg/mL
COc1cc(Cc2cnc(N)nc2N)cc(OC)c1OCCCNc1ccc(S(=O)(=O)c2ccc(N)cc2)cc1 ; organism: Mycobacterium ulcerans ; endpoint: MIC ; strain: Isolate 5143 ; result: 1 µg/mL
CN[C@@H]1[C@@H](O[C@H]2O[C@H](CO)[C@@H](N)[C@H](O)[C@H]2O)OC2C[C@@H](N)[C@@H](O[C@H]3[C@H](OCC(O)CN)[C@@H](O)[C@H](N)C[C@@H]3N)OC2[C@@H]1O ; organism: Mycobacterium abscessus ; endpoint: MIC ; method: broth dilution ; strain: L948 ; result: 0.5–1 µg/mL
CO[C@H]1/C=C/O[C@@]2(C)Oc3c(C)c(O)c4c(O)c(c(/C=N/N5CCN(C)CC5)c(O)c4c3C2=O)NC(=O)/C(C)=C\C=C\[C@H](C)[C@H](O)[C@@H](C)[C@@H](O)[C@@H](C)[C@H](OC(C)=O)[C@@H]1C ; organism: Mycobacterium avium intracellulare ; endpoint: MIC90 ; strain: 20 isolates ; result: 2 µg/mL
CC1CN(c2cc3c(cc2F)c(=O)c(C(=O)O)cn3C2CC2)CC(C)N1 ; organism: Mycobacterium smegmatis ; endpoint: MIC99 ; strain: KD1991 (GYRA D95Y) ; result: 2.3 µg/mL
CN[C@@H]1[C@@H](O[C@H]2O[C@H](CO)[C@@H](N)[C@H](O)[C@H]2O)OC2C[C@@H](N)[C@@H](O[C@H]3[C@H](OCC(O)CO)[C@@H](O)[C@H](N)C[C@@H]3N)OC2[C@@H]1O ; organism: Mycobacterium abscessus ; endpoint: MIC ; method: broth dilution ; strain: L948 ; result: 2 µg/mL
O=C(O)c1cn(C2CC2)c2c(F)c(N3CCN4CCC3C4)c(F)cc2c1=O ; organism: Mycobacterium avium complex ; endpoint: MIC ; strain: PI12/39 ; result: 4 µg/mL
Clc1ccc(Cn2cc(/C=N/Nc3nncs3)c3ccccc32)cc1 ; conditions: 48 h ; organism: Mycobacterium bovis BCG ; endpoint: MIC100 ; method: broth dilution ; strain: 1173P2 ; result: 3.91 µg/mL
COc1c(N2CCN(C(C)C)CC2)c(F)cc2c(=O)c(C(=O)O)cn(C3CC3)c12 ; organism: Mycobacterium smegmatis ; endpoint: MIC99 ; strain: KD1163 (GRYA+) ; result: 0.14 µg/mL
CC1COc2c(N3CCN(C)CC3)c(F)cc3c(=O)c(C(=O)O)cn1c23 ; organism: Mycoplasma hominis ; endpoint: MIC50 ; strain: 37 strains ; result: 1 µg/mL
CN[C@@H]1[C@@H](O[C@H]2O[C@H](CO)[C@@H](N)[C@H](O)[C@H]2O)OC2C[C@@H](N)[C@@H](O[C@H]3[C@H](OC4O[C@H](CO)[C@@H](OCCN)[C@H]4O)[C@@H](O)[C@H](N)C[C@@H]3N)OC2[C@@H]1O ; organism: Mycobacterium abscessus ; endpoint: MIC ; method: broth dilution ; strain: L948 ; result: 8 µg/mL
CC(C)(N)C1CCN(c2c(F)cc3c(=O)c(C(=O)O)cn(C4CC4)c3c2F)C1 ; organism: Mycobacterium avium complex ; endpoint: MIC ; strain: 1172733 ; result: 4 µg/mL
Cc1cc(NS(=O)(=O)c2ccc(NC(=O)N(C(C)C)C(C)C)cc2)no1 ; conditions: 21 d ; organism: Mycobacterium kansasii ; endpoint: MIC100 ; method: broth dilution / absorbance ; strain: 6509/96 clinical isolate ; result: 500 µM
O=C(Nc1ccc(C(F)(F)F)cc1)c1cc(Br)ccc1OP(=O)(c1ccccc1)c1ccccc1 ; conditions: 14 d ; organism: Mycobacterium kansasii ; endpoint: MIC ; strain: My 235/80 ; result: 8 µM
COc1c(N2CCNCC2)c(F)cc2c(=O)c(C(=O)O)cn(C3CC3)c12 ; organism: Mycobacterium smegmatis ; endpoint: MIC99 ; strain: KD1991 (GYRA D95Y) ; result: 0.61 µg/mL
C[C@H]1NCc2cc(-c3ccc4c(=O)c(C(=O)O)cn(C5CC5)c4c3OC(F)F)ccc21 ; organism: Mycobacterium smegmatis ; endpoint: MIC ; strain: A28315 ; result: 0.13 µg/mL
COc1cc(Cc2cnc(N)nc2N)cc(OC)c1OC ; organism: Mycobacterium ulcerans ; endpoint: MBC ; strain: Isolate 842 ; result: >32 µg/mL
CCCCCCCNC(=O)Nc1ccc(S(=O)(=O)Nc2cc(C)on2)cc1 ; conditions: 21 d ; organism: Mycobacterium kansasii ; endpoint: MIC100 ; method: broth dilution / absorbance ; strain: 6509/96 clinical isolate ; result: 8 µM
CCN1CCN(c2c(F)cc3c(=O)c(C(=O)O)cn(C4CC4)c3c2OC)CC1 ; organism: Mycobacterium smegmatis ; endpoint: MIC99 ; strain: KD2008 (GYRA G89C) ; result: 2.4 µg/mL
Cc1cc(-c2cc3c(cc2F)c(=O)c(C(=O)O)cn3C2CC2)cc(C)n1 ; organism: Mycoplasma hominis ; endpoint: MIC90 ; strain: 37 strains ; result: 0.004 µg/mL
NC1CCCCN(c2c(F)cc3c(=O)c(C(=O)O)cn(C4CC4)c3c2F)C1=O ; organism: Mycobacterium avium complex ; endpoint: MIC ; strain: 1988557 ; result: 32 µg/mL
CC1CN(c2c(F)cc3c(=O)c(C(=O)O)cn(C4CC4)c3c2F)CCN1 ; organism: Mycobacterium smegmatis ; endpoint: MIC99 ; strain: KD2003 (GYRA D95G) ; result: 1.2 µg/mL
CN[C@@H]1[C@@H](O[C@H]2O[C@H](CO)[C@@H](N)[C@H](O)[C@H]2O)OC2C[C@@H](N)[C@@H](O[C@H]3[C@H](OC4O[C@H](CNC=O)[C@@H](O)[C@H]4O)[C@@H](O)[C@H](N)C[C@@H]3N)OC2[C@@H]1O ; organism: Mycobacterium abscessus ; endpoint: MIC ; method: broth dilution ; strain: L948 ; result: 16 µg/mL
O=C(Nc1ccccc1)c1ccccc1OP(=O)(c1ccccc1)c1ccccc1 ; conditions: 21 d ; organism: Mycobacterium kansasii ; endpoint: MIC ; strain: My 6509/96 ; result: 250 µM
Fc1cccc(Cn2cc(/C=N/Nc3nncs3)c3ccccc32)c1 ; conditions: 24 h ; organism: Mycobacterium bovis BCG ; endpoint: MIC100 ; method: broth dilution ; strain: 1173P2 ; result: 250 µg/mL
CC(C)N1CCN(c2cc3c(cc2F)c(=O)c(C(=O)O)cn3C2CC2)CC1 ; organism: Mycobacterium smegmatis ; endpoint: MIC99 ; strain: KD1995 (GYRA D95H) ; result: 3.6 µg/mL
O=C(Nc1ccc(Cl)cc1)c1cc(Cl)ccc1OP(=O)(c1ccccc1)c1ccccc1 ; conditions: 7 d ; organism: Mycobacterium kansasii ; endpoint: MIC ; strain: My 6509/96 ; result: 8 µM
C(=N\Nc1nncs1)/c1cn(CC2CCC2)c2ccccc12 ; conditions: 24 h ; organism: Mycobacterium bovis BCG ; endpoint: MIC100 ; method: broth dilution ; strain: 1173P2 ; result: 31.25 µg/mL
CC(C)N1CCN(c2c(F)cc3c(=O)c(C(=O)O)cn(C4CC4)c3c2F)CC1 ; organism: Mycobacterium smegmatis ; endpoint: MIC99 ; strain: KD1987 (GYRA A91V) ; result: 2.3 µg/mL
CNC(=O)Nc1ccc(S(=O)(=O)Nc2cc(C)on2)cc1 ; conditions: 21 d ; organism: Mycobacterium kansasii ; endpoint: MIC100 ; method: broth dilution / absorbance ; strain: 235/80 ; result: 125 µM
CN[C@@H]1[C@@H](O[C@H]2O[C@H](CO)[C@@H](N)[C@H](O)[C@H]2O)OC2C[C@@H](N)[C@@H](O[C@H]3[C@H](OCCCN)[C@@H](O)[C@H](N)C[C@@H]3N)OC2[C@@H]1O ; organism: Mycobacterium abscessus ; endpoint: MIC ; method: broth dilution ; strain: L948 ; result: 1 µg/mL
CC1CN(c2c(F)cc3c(=O)c(C(=O)O)cn(C4CC4)c3c2F)CC(C)N1 ; organism: Mycobacterium smegmatis ; endpoint: MIC99 ; strain: KD2008 (GYRA G89C) ; result: 1.2 µg/mL
Cn1cc(/C=N/Nc2nncs2)c2ccccc21 ; conditions: 48 h ; organism: Mycobacterium bovis BCG ; endpoint: MIC100 ; method: broth dilution ; strain: 1173P2 ; result: 62.5 µg/mL
Cc1cc(NS(=O)(=O)c2ccc(NC(=O)Nc3ccc(S(=O)(=O)Nc4cc(C)on4)cc3)cc2)no1 ; conditions: 7 d ; organism: Mycobacterium kansasii ; endpoint: MIC100 ; method: broth dilution / absorbance ; strain: 235/80 ; result: 2 µM

Repeating the final 6 entries:

compound	conditions	organism	endpoint	method	strain	tested at	result
CC(C)N1CCN(c2c(F)cc3c(=O)c(C(=O)O)cn(C4CC4)c3c2F)CC1	-	Mycobacterium smegmatis	MIC99	-	KD1987 (GYRA A91V)	-	2.3 µg/mL
CNC(=O)Nc1ccc(S(=O)(=O)Nc2cc(C)on2)cc1	21 d	Mycobacterium kansasii	MIC100	broth dilution / absorbance	235/80	-	125 µM
CN[C@@H]1[C@@H](O[C@H]2O[C@H](CO)[C@@H](N)[C@H](O)[C@H]2O)OC2C[C@@H](N)[C@@H](O[C@H]3[C@H](OCCCN)[C@@H](O)[C@H](N)C[C@@H]3N)OC2[C@@H]1O	-	Mycobacterium abscessus	MIC	broth dilution	L948	-	1 µg/mL
CC1CN(c2c(F)cc3c(=O)c(C(=O)O)cn(C4CC4)c3c2F)CC(C)N1	-	Mycobacterium smegmatis	MIC99	-	KD2008 (GYRA G89C)	-	1.2 µg/mL
Cn1cc(/C=N/Nc2nncs2)c2ccccc21	48 h	Mycobacterium bovis BCG	MIC100	broth dilution	1173P2	-	62.5 µg/mL
Cc1cc(NS(=O)(=O)c2ccc(NC(=O)Nc3ccc(S(=O)(=O)Nc4cc(C)on4)cc3)cc2)no1	7 d	Mycobacterium kansasii	MIC100	broth dilution / absorbance	235/80	-	2 µM